# Reference: the supplement of paper PMC12637763
# Changes are numbered by the printed parent chain. The list shows a part of the results. Env chains of viruses from a treatment-interruption trial, translated from the printed DNA. IC50 / IC80 of two broadly neutralizing antibodies; lower = more sensitive virus; >50 µg/ml means not reached and <0.001 µg/ml is below the lowest dose. No active / inactive call.
# B1: HIV-1 Env, rebound clone, placebo arm (protein)
# chain: MRVKGIKKNYQRLWRWGTMLLGLLMICNAEKLWVTVYYGVPVWKEATTTLFCASDAKGYDTEAHNVWATHACVPTDPNPQEIDLVNVNESFNMWKNNMVEQMHQDIISLWDQSLKPCVRLTPLCVNLNCTDLKKGNSTQNTTNATKLEEKGEGEVKNCSFNITTNYNDKKQQEYALFYNLDVVKVGDNDTSYRLISCNTSVVTQACPKINFDPIPIHYCAPAGFAILKCKDKKFNGTGICTNVSTVQCTHGIKPVVSTQLLLNGSLAEEEVVIRSENFTNNAKTIIVQLNEAVAINCIRPNNNTRKSIHMGPGKAFYTTGDIIGDIRQAHCNISKGKWNKTLSRVVEKLQGQFGNKTINFNQSSGGDPEIVMHSFNCAGEFFYCNTTGLFNSTWISPSNSTWNNTWNSTENIEENITLPCRIKQIVNRWQEVGKAIYAPPIKGPISCSSNITGILLTRDGGNDNITNNTETFRPGGGDMRDNWRSELYKYKVVEIKPLGVAPTKAKRRVVQREKRAVGLGAVLFGFLGAAGSTMGAASVTLTVQARQLLSGIVQQQNNLLRAIEAQQHLLQLTVWGIKQLQARVLAVERYLRDQQLLGLWGCSGKLICTTAVPWNTSWSNKSMTQIWNHTTWMQWEREIENYTNIIYNLIEDSQNQQEQNEKELLELDKWASLWNWFDITNWLWYIKLFIMIVGGLIGLRIVFAVLSIVKRVRQGYSPLSLQTLLPTQRGPDRPEGIEEGGGERDRDRSRRLVDGFLALIWDDLRSLCLFSYHRLRDLLLIVTRIVGLLGRRGWDILKYWWNLLQYWIQELKNSAVSLLNYTAIAVAEGTDRIIEVLQRIFRAVLHIPTRIRQGLERTLV
# B2: HIV-1 Env, rebound clone, placebo arm (protein)
# chain: MRVKGIKKNYQRLWRWGTMLLGLLMICNAEKLWVTVYYGVPVWKEATTTLFCASDAKGYDTEAHNVWATHACVPTDPNPQEIDLVNVNESFNMWKNNMVEQMHQDIISLWDQSLKPCVRLTPLCVNLNCTDLKKGNSTQNTTNTKLEEKGEGEVKNCSFNITTNYNDKKQQEYALFYNLDVVKVGDNDTSYRLISCNTSVVTQACPKINFDPIPIHYCAPAGFAILKCKDKKFNGTGICTNVSTVQCTHGIKPVVSTQLLLNGSLAEEEVVIRSENFTNNAKTIIVQLNEAVAINCIRPNNNTRKSIHMGPGKAFYTTGDIIGDIRQAHCNISKGEWNKTLSRVVEKLQGQFGNKTINFNQSSGGDPEIVMHSFNCAGEFFYCNTTGLFNSTWISPPNSTWNNTWNSTENIRENITLPCRIKQIVNRWQEVGKAIYAPPIKGPISCSSNITGILLTRDGGNDNITNNTETFRPGGGDMRDNWRSELYKYKVVEIKPLGVAPTKAKRRVVQREKRAVGLGAVLFGFLGAAGSTMGAASVTLTVQARQLLSGIVQQQNNLLRAIEAQQHLLQLTVWGIKQLQARVLAVERYLRDQQLLGLWGCSGKLICTTAVPWNTSWSNKSMTQIWNHTTWMQGEREIENYTNIIYNLIEDSQNQQEQNEKELLELDKWASLWNWFDITNWLWYIKLFIMIVGGLIGLRIVFAVLSIVKRVRQGYSPLSLQTLLPTQRGPDRPEGIEEGGGERDRDRSRRLVDGFLALIWDDLRSLCLFSYHRLRDLLLIVTRIVGLLGRRGWDILKYWWNLLQYWIQELKNSAVSLLNYTAIAVAEGTDRIIEVLQRIFRAVLHIPTRIRQGLERTLV
# B3: HIV-1 Env, rebound clone, placebo arm (protein)
# chain: MRVMGMLRNWQHLEKWGLLFLGLLIICSAKDNLWVTVYYGVPVWKEATTTLFCASDAKGYDKEAHNVWATHACVPTDPNPQEIWLKNVTENFNIWRNDMVEQMHTDIISLWDESLKPCVKITPLCVTLNCTNAKFNSTSANSTQEEPGAVQNCTFNTTTELRDKKQKVYALFYRLDLIPLKENNASNNASNEYILINCNTSIIKQACPKVSWDPIPIHYCAPAGYAILKCRDKKFNGTGPCKNVSTVQCTHGVKPVVSTQLLLNGSLAEEDIVIRSENISDNAKTIIVSLNEPVQINCTRPGNNTRKGIHLGPGQTFYARGDIIGDIRKAHCKINKSQWNKTLAQVSTELKSLLNITGVVFKPPVGGDLEVTMHSFNCRGEFFYCNTSGLFNFSYSVPTNETITINETITIPCKIKQIINMWQGVGQAMYAPPIAGNITCNSNITGILLIRDGGPNSTNNDTFRPGGGDMRDNWRSELYKYKVVEIEPLGVAPTRARRQVVRRERRAVGIGAVFLGFLGAAGSTMGAASITLTVQARQLLSGIVQQQRNLLQAIEAQQHLLKLTVWGIKQLQARVLAVERYLKDQQLLGIWGCSGKLICTTSVPWNSSWSNRSLDEIWNNMTWIDWEREISNYSQEIYKLIEQSQNQQEKNEQELLALDKWASLWSWFDITNWLWYIKIFIMIVGGLIGLRIVFAVLAIVNRVRKGYSPLSLQTLIPSPRGPDRPDGIEEGGGEQGRDRSVRLVTGFLALVWDDLRNLCLFSYRHLRDFILIAARVVDRGLRRGWEILKYLWNLTKYWSQELKNSATSLFNSTAIVVAEGTDRIIEALQAVIRAVLHIPRRIRQGFERALL
# B4: HIV-1 Env, rebound clone, placebo arm (protein)
# chain: MRVMGMLRNWQHLEKWGLLFLGLLIICSAKDNLWVTVYYGVPVWKEATTTLFCASDAKGYDKEAHNVWATHACVPTDPNPQEIWLKNVTENFNIWRNDMVEQMHTDIISLWDESLKPCVKITPLCVTLNCTNAKFNSTSANSTQEEPGAVQNCTFNTTTELRDKKQKVYALFYRLDLIPLKENNASNNASNEYILINCNTSIIKQACPKVSWDPIPIHYCAPAGYAILKCRDKKFNGTGPCKNVSTVQCTHGVKPVVSTQLLLNGSLAEEDIVIRSENISDNAKTIIVSLNEPVQINCTRPGNNTRKGIHLGPGQTFYARGDIIGDIRKAHCKINKSQWNKTLAQVSTKLKSLLNITGVVFKPPVGGDLEVTMHSFNCRGEFFYCNTSGLFNFSYSVPTNETITINETITIPCKIKQIINMWQGVGQAMYAPPIAGNITCNSNITGILLIRDGGPNSTNNDTFRPGGGDMRDNWRSELYKYKVVEIEPLGVAPTRARRQVVRRERRAVGIGAVFLGFLGAAGSTMGAASITLTVQARQLLSGIVQQQRNLLQAIEAQQHLLKLTVWGIKQLQARVLAVERYLKDQQLLGIWGCSGKLICTTSVPWNSSWSNRSLDEIWNNMTWIDWEREISNYSQEIYKLIEQSQNQQEKNEQELLALDKWASLWSWFDITNWLWYIKIFIMIVGGLIGLRIVFAVLAIVNRVRKGYSPLSLQTLIPSPRGPDRPDGIEEGGGEQGRDRSVRLVTGFLALVWDDLRNLCLFSYRHLRDFILIAARVVDRGLRRGWEQCLKYLWNLTKYWSQELKNSATSLFNSTAIVVAEGTDRIIEALQAVIRAVLHIPRRIRQGFERALL
# B5: HIV-1 Env, rebound clone, placebo arm (protein)
# chain: MRAKGTRKNCQHLWKWGTMLLGMLMICSAAGNLWVTVYYGVPVWKAANTTLFCASDAKAYDTEVHNVWATHACVPTDPNPQEVPLENVTENFNMWKNNMAEQMHEDIISLWDQSLKPCVKLTPLCVTLNCTDYTKNATNQNNTSGNETVGKEIEMKNCSFNITTDMRDKFQKEYALFYKDDIVSIDNNVSYRLISCNTSVLTQACPKISFEPIPIHYCAPAGFAILKCNDKKFNGTGPCKNVSTVQCTHGIRPVVSTQLLLNGSLAEGGIVIRSENITNNAKTIIVQLNETVEINCTRPNNNTRKSIHIGPGRAFYATGDIIGDIRQAHCNISGTKWNNTLKKIVGQLRAQFGTQFKNKTITFNHSSGGDPEIVMHMFNCGGEFFYCNTTQLFNSTWPANGSMAENSTNNGTITLPCRIKQIVNMWQEVGKAMYAPPIKGQIKCTSNITGLILTRDGGTETNTTTEIFRPGGGNMMDNWRSELYKYKVVKIEPLGVAPTKAKRRVVQREKRAVTFGALFLGFLGAAGSTMGAASMTLTVQARLLLSGIVQQQNNLLRAIEAQQHMLQLTVWGIKQLQARVLAVERYLKDQQLLGIWGCSGKLICTTAVPWNASWSNKTQDEIWGNMTWMQWEKEISNYTGLIYNLIEKSQTQQEQNEQELLALDQWASLWNWFDISKWLWYIKIFIMIVGGLIGLRIVFTVLNIVNRVRQGYSPLSFQTLLPNPRGPDRPGGIEEEGGERDRDSSSRLADGFLAIFWVDLRSLFLFSYHHLRDLLLIAARIVELLGRRGWELLKYWWNLLRYWSQELKNSAISLLNATAIAVAEGTDRVIEVLQRIWRGILHIPTRIRQGLERLLL
# B6: HIV-1 Env, rebound clone, placebo arm (protein)
# chain: B5 chain with G751R
# Key:
# [1] = biological target: antibody 10-1074; experiment: neutralization IC50; higher = virus less sensitive to the antibody
# Protocol: (§1)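 Pseudovirus bearing the Env chain mixed with antibody, from 50 µg/ml in fivefold dilutions, on TZM-bl reporter cells, in duplicate.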
# [2] = biological target: antibody 3BNC117; experiment: as above
# Protocol: as §1
# [3] = biological target: antibody 10-1074; experiment: neutralization IC80; higher = virus less sensitive to the antibody
# Protocol: as §1
# [4] = biological target: antibody 3BNC117; experiment: as above
# Protocol: as §1
Binder,neutralization IC50 [1],neutralization IC50 [2],neutralization IC80 [3],neutralization IC80 [4]
B1,0.077 µg/mL,0.416 µg/mL,0.366 µg/mL,0.947 µg/mL
B2,0.038 µg/mL,0.433 µg/mL,0.13 µg/mL,0.932 µg/mL
B3,3.13 µg/mL,0.22 µg/mL,29.7 µg/mL,0.767 µg/mL
B4,> 50 µg/mL,0.984 µg/mL,> 50 µg/mL,25.2 µg/mL
B5,0.005 µg/mL,0.013 µg/mL,0.026 µg/mL,0.039 µg/mL
B6,0.004 µg/mL,0.01 µg/mL,0.021 µg/mL,0.029 µg/mL
